Source: publication PMC12945441

Molecular target: SARS-CoV-2 Wuhan-Hu-1 receptor-binding domain (SARS-CoV-2 Wuhan-Hu-1)
Test: ELISA

For S2E12, the IC50 was 0.0221 µg/mL.
